Results of unrelated studies side by side (data: NIAID ChemDB).

Shared fields: enzyme or target tests; organism: HIV-1; target: Protease; read-out: inhibition

Neighbouring rows are from separate reports. Percent inhibition refers to the dose given; in toxicity tests it is the harm to the cells. An empty or dashed field is not shown.

smiles,dose,method,result
CC(=O)OC1C(COC(=O)/C=C/c2ccc(O)cc2)OC(COC(=O)/C=C/c2ccc(O)cc2)(OC2OC(COC(=O)/C=C/c3ccc(O)cc3)[C@@H](OC(C)=O)[C@H](O)[C@H]2O)C1OC(=O)/C=C/c1ccc(O)cc1,1000 µg/mL,substrate cleavage / fluorescence,56.51%
O=c1c(-c2ccc(O)cc2)coc2cc(OC3OC(CO)C(O)C(O)C3O)cc(O)c12,1000 µg/mL,substrate cleavage / fluorescence,75%
O=C(CCc1ccccc1)C(F)(F)Cc1ccccc1,270 µM,fluorescence,94%
O=c1cc(-c2ccc(O)c(-c3c(O)cc(O)c4c(=O)cc(-c5ccc(O)cc5)oc34)c2)oc2cc(O)cc(O)c12,100 µg/mL,FRET,90%
CC(C)[C@@H](CO)NC(=O)[C@H](OCc1ccccc1)[C@H](O)[C@@H](O)[C@@H](OCc1ccccc1)C(=O)N[C@H](CO)C(C)C,10 µM,absorbance,0%
O=c1c(O)c(-c2ccc(O)cc2)oc2cc(O)cc(O)c12,100 µg/mL,FRET,86.4%
CC(C)[C@H](CC(=O)N(C)Cc1ccccn1)C(=O)N[C@@H](Cc1ccccc1)[C@@H](O)[C@H](O)[C@H](Cc1ccccc1)NC(=O)[C@@H](CC(=O)N(C)Cc1ccccn1)C(C)C,0.01 µM,fluorescence,45%
CC1(C)CC[C@]2(C(=O)O)CCC3=C(CCC4[C@@]5(C)C[C@H](O)[C@H](O)[C@@](C)(C(=O)O)C5CC[C@@]34C)C2C1,1000 µg/mL,substrate cleavage / fluorescence,85.8%
Cc1c(O)cccc1C(=O)N[C@@H](Cc1ccccc1)[C@H](O)C(=O)N1CSC(C)(C)[C@H]1C(=O)NC(C)(C)C,0.05 µM,,87.6%
O=C(NCCO)[C@H](OCc1ccccc1)[C@H](O)[C@@H](O)[C@@H](OCc1ccccc1)C(=O)NCCO,10 µM,absorbance,0%
COc1cc(/C=C/C(=O)OCC2OC(OC3(COC(=O)/C=C/c4ccc(O)cc4)OC(COC(=O)/C=C/c4ccc(O)cc4)C(OC(C)=O)C3OC(=O)/C=C/c3ccc(O)cc3)C(O)C(O)C2OC(C)=O)ccc1O,100 µg/mL,substrate cleavage / fluorescence,33.24%
Cc1c(O)cccc1NC(=O)[C@H](OCc1ccccc1)[C@H](O)[C@@H](O)[C@@H](OCc1ccccc1)C(=O)Nc1cccc(O)c1C,10 µM,absorbance,0%
Cc1cccc(C)c1OCC(=O)N[C@@H](Cc1ccccc1)[C@H](O)C(=O)N1CSC(C)(C)[C@H]1C(=O)NC(C)(C)C,0.05 µM,,95.9%
O=C(N[C@H]1c2ccccc2C[C@H]1O)[C@H](OCc1ccccc1)[C@H](O)[C@@H](O)[C@@H](OCc1ccccc1)C(=O)N[C@H]1c2ccccc2C[C@H]1O,10 µM,absorbance,0%
Cc1ccccc1-n1nnc(C(c2ccccc2)(c2ccccc2)n2ccnc2)c1C,0.08 µg/mL,substrate cleavage / fluorescence,12.1%
COC(=O)[C@H](Cc1ccccc1)NC(=O)[C@H](OCc1ccccc1)[C@H](O)[C@@H](O)[C@@H](OCc1ccccc1)C(=O)N[C@@H](Cc1ccccc1)C(=O)OC,10 µM,absorbance,0%
CC(C)[C@H](NC(=O)OCc1ccccn1)C(=O)NC(Cc1ccccc1)C(O)C(F)(F)C(Cc1ccccc1)NC(=O)[C@@H](NC(=O)OCc1ccccn1)C(C)C,0.001 µM,fluorescence,71%
Cc1cc(N)cc(C)c1OCC(=O)N[C@@H](Cc1ccccc1)[C@H](O)C(=O)N1CSC(C)(C)[C@H]1C(=O)N[C@H]1c2ccccc2C[C@H]1O,0.05 µM,substrate cleavage,96%
CC(=O)N[C@H](C(=O)N[C@H](C(=O)NC(Cc1ccccc1)C(O)C(O)C(Cc1ccccc1)NCc1ccccc1)C(C)C)C(C)C,270 µM,fluorescence,100%
O=C(NCc1ccccn1)[C@H](OCc1ccccc1)[C@H](O)[C@@H](O)[C@@H](OCc1ccccc1)C(=O)NCc1ccccn1,10 µM,absorbance,0%
CC[C@H](C)[C@H](NC(=O)OCc1ccccc1)C(=O)N[C@@H](Cc1ccccc1)C(O)[C@H](Cc1ccccc1)NC(=O)[C@@H](NC(=O)OCc1ccccc1)[C@@H](C)CC,0.005 µM,fluorescence,52%
CC(=O)OC1C(COC(=O)/C=C/c2ccc(O)cc2)OC(COC(=O)/C=C/c2ccc(O)cc2)(OC2OC(COC(=O)/C=C/c3ccc(O)cc3)C(O)C(O)C2O)C1OC(=O)/C=C/c1ccc(O)cc1,100 µg/mL,substrate cleavage / fluorescence,91.58%
CC(C)[C@H](NC(=O)OCc1ccccc1)C(=O)N[C@@H](Cc1ccccc1)[C@H](O)[C@H](Cc1ccccc1)NC(=O)[C@@H](NC(=O)OCc1cccnc1)C(C)C,0.005 µM,fluorescence,59%
O=c1oc2c(O)c(O)cc3c(=O)oc4c(O)c(O)cc1c4c23,1000 µg/mL,substrate cleavage / fluorescence,78%
CC(C)CC(NC(=O)[C@@H](NC(=O)OCc1ccccc1)C(C)C)C(O)C(F)(F)C(NC(=O)[C@@H](NC(=O)OCc1ccccc1)C(C)C)C(C)C,0.005 µM,fluorescence,45%
O=C1N(Cc2cccc(Br)c2)[C@H]2[C@H](CS(=O)(=O)[C@H]2CCCCCO)N1Cc1cccc(Br)c1,80 µM,,90%